The values below come from patent publication US20150268247A1, “Assay for Screening of Anti-Viral Compounds That Inhibit Specific Interaction Interfaces Between Cullin5 and an ElonginB/ElonginC/ CBF-beta/HIV-1 Vif Complex” (UNIVERSITY OF ROCHESTER, priority 2012, published 2015).

The chains behind the UniProt entries cited, without tags or fusion partners. A line that says so, or that is headed by a name, gives the form on record, which may keep a tag or linker.
ElonginB/ElonginC heterodimer (human), Q15370, UniProt Q15370, other isoform, or with tags, fused parts or gaps limits assumed, chain 1 of 2: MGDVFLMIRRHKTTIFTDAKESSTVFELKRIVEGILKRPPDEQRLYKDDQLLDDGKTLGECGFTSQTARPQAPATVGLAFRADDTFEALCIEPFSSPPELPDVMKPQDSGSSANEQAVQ

Broadly, the Kd is the free concentration of one partner at which half of the binding sites on the other are occupied at equilibrium, for simple one-to-one binding.

For the assay, the target named is ElonginB/ElonginC heterodimer (human), Q15370. In words: fluorescence anisotropy, 5-FAM labelled peptide titrated with EloB/C up to about 115 µM; Table 4 of the text prints 45.2 for this pair [cont.) lower right panel]. For orientation: Fluorescence polarisation rises when a labelled molecule tumbles more slowly, as on binding a larger partner.

LFSDVHAVCLWD (modifications not checked) [Cul5(43-54) peptide] registered a Kd of 45.9 µM.
